According to the supplement of paper PMC3578754:
Fold change is the IC50 on the isolate divided by the IC50 on a reference virus; 1 = unchanged, higher = more resistant. Changes are given against the subtype B consensus. No active / inactive call. The values were gathered from many studies (numbered anew) with different assays, which the source does not name. Most viruses are clinical isolates; some are laboratory strains or clones with known resistance changes. Isolates with mixed residues are left out; stretches that were not sequenced show no change. Round top values that many isolates share are read here as limits; other very high values and 0.1 may be limits too. For part of these data: The protease changes I3V and N37S, insertions and deletions cannot be read from the source.

Key:
zidovudine = compound: Cc1cn([C@H]2C[C@H](N=[N+]=[N-])[C@@H](CO)O2)c(=O)[nH]c1=O [zidovudine]; assay: fold change of IC50 against reference virus; higher = more resistant
Experimental: (§1)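 Cell-culture drug susceptibility tests of virus bearing the reverse transcriptase of each isolate, gathered from many studies.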

nevirapine = compound: Cc1ccnc2c1NC(=O)c1cccnc1N2C1CC1 [nevirapine]; assay: as above
Experimental: as §1

lopinavir = compound: Cc1cccc(C)c1OCC(=O)N[C@@H](Cc1ccccc1)[C@@H](O)C[C@H](Cc1ccccc1)NC(=O)[C@H](C(C)C)N1CCCNC1=O [lopinavir]; assay: fold change of IC50 against reference virus; higher = more resistant; Cell-culture drug susceptibility tests of virus bearing the protease of each isolate, gathered from many studies.
nelfinavir = compound: Cc1c(O)cccc1C(=O)N[C@@H](CSc1ccccc1)[C@H](O)CN1C[C@H]2CCCC[C@H]2C[C@H]1C(=O)NC(C)(C)C [nelfinavir]; assay: as above
saquinavir = compound: CC(C)(C)NC(=O)[C@@H]1C[C@@H]2CCCC[C@@H]2CN1C[C@@H](O)[C@H](Cc1ccccc1)NC(=O)[C@H](CC(N)=O)NC(=O)c1ccc2ccccc2n1 [saquinavir]; assay: as above
indinavir = compound: CC(C)(C)NC(=O)[C@@H]1CN(Cc2cccnc2)CCN1C[C@@H](O)C[C@@H](Cc1ccccc1)C(=O)N[C@H]1c2ccccc2C[C@H]1O [indinavir]; assay: as above
ritonavir = compound: CC(C)c1nc(CN(C)C(=O)N[C@H](C(=O)N[C@@H](Cc2ccccc2)C[C@H](O)[C@H](Cc2ccccc2)NC(=O)OCc2cncs2)C(C)C)cs1 [ritonavir]; assay: as above

Row | Test System | fold change of IC50 against reference virus (zidovudine) | fold change of IC50 against reference virus (nevirapine) | fold change of IC50 against reference virus (lopinavir) | fold change of IC50 against reference virus (nelfinavir) | fold change of IC50 against reference virus (saquinavir) | fold change of IC50 against reference virus (indinavir) | fold change of IC50 against reference virus (ritonavir)
1 | HIV-1 isolate 90 (reverse transcriptase changes: K70R L100I K102Q S162C K277R I293V R358K V435I S468P K550G, study 16) | 1 | 4 | – | – | – | – | –
2 | HIV-1 isolate 115 (reverse transcriptase changes: M41L K101E K102Q S162C T215Y K277R I293V R358K V435I S468P K550G, study 16) | 4000 | 4 | – | – | – | – | –
3 | HIV-1 isolate 91 (reverse transcriptase changes: K103R V179D Y181C T200A Q207E V245M, study 26) | 1 | 30000 | – | – | – | – | –
4 | HIV-1 isolate 1119 (reverse transcriptase changes: D67N K70R K101E K102Q S162C T215Y K219Q K277R I293V R358K V435I S468P K550G, study 16) | 4000 | 8 | – | – | – | – | –
5 | HIV-1 isolate 513 (reverse transcriptase changes: K102Q S162C V179E K277R, study 16) | – | 1 | – | – | – | – | –
6 | HIV-1 isolate 448 (reverse transcriptase changes: K70R K102Q S162C K277R I293V R358K V435I S468P K550G, study 16) | 4 | 1 | – | – | – | – | –
7 | HIV-1 isolate 1551 (reverse transcriptase changes: K101E K102Q S162C K277R, study 16) | – | 8 | – | – | – | – | –
8 | HIV-1 isolate 961 (reverse transcriptase changes: V108I V179D Y181C T200A Q207E V245M, study 26) | 1 | 30000 | – | – | – | – | –
9 | HIV-1 isolate 1067 (reverse transcriptase changes: K102Q S162C V179D K277R, study 16) | – | 1 | – | – | – | – | –
10 | HIV-1 isolate 599 (reverse transcriptase changes: M41L K102Q S162C T215Y K277R I293V R358K V435I S468P K550G, study 16) | – | 1 | – | – | – | – | –
11 | HIV-1 isolate 6 (reverse transcriptase changes: K102Q S162C Y181C K277R, study 16) | – | 8 | – | – | – | – | –
12 | HIV-1 isolate 1289 (reverse transcriptase changes: K102Q V106A S162C K277R, study 16) | – | 8 | – | – | – | – | –
13 | HIV-1 isolate 782 (reverse transcriptase changes: K122E F214L A272P K277R M357T A376T A400T N447S D460N S468T S519N, study 96) | – | 1 | – | – | – | – | –
14 | HIV-1 isolate 747 (reverse transcriptase changes: M41L L100I K102Q S162C T215Y K277R I293V R358K V435I S468P K550G, study 16) | 1 | 1 | – | – | – | – | –
15 | HIV-1 isolate 821 (reverse transcriptase changes: K102Q S162C Y188C K277R, study 16) | – | 8 | – | – | – | – | –
16 | HIV-1 isolate 1263 (reverse transcriptase changes: V179D Y181C T200A Q207E F227L V245M, study 26) | 1 | 40000 | – | – | – | – | –
17 | HIV-1 isolate 1069 (reverse transcriptase changes: L100I K102Q S162C K277R, study 16) | – | 1 | – | – | – | – | –
18 | HIV-1 isolate 1121 (reverse transcriptase changes: K102Q K103N S162C K277R, study 16) | – | 8 | – | – | – | – | –

Row | Test System | fold change of IC50 against reference virus (zidovudine) | fold change of IC50 against reference virus (nevirapine) | fold change of IC50 against reference virus (lopinavir) | fold change of IC50 against reference virus (nelfinavir) | fold change of IC50 against reference virus (saquinavir) | fold change of IC50 against reference virus (indinavir) | fold change of IC50 against reference virus (ritonavir)
19 | HIV-1 isolate 390 (reverse transcriptase changes: A98G K102Q S162C K277R, study 16) | – | 2 | – | – | – | – | –
20 | HIV-1 isolate 798 (reverse transcriptase changes: K102Q S162C K277R, study 16) | – | 1 | – | – | – | – | –
21 | HIV-1 isolate 481 (reverse transcriptase changes: K122E Y181C F214L A272P K277R M357T A376T A400T N447S D460N S468T S519N, study 125) | – | 100 | – | – | – | – | –
22 | HIV-1 isolate 1090 (protease changes: L10I I15V I54V L63P A71V V82A I84V I85V L90M, study 116) | – | – | 13 | 7 | 14 | 7.7 | 78
23 | HIV-1 isolate 1586 (protease changes: T12S L63P H69Q, study 109) | – | – | 1 | 1.3 | 0.6 | 0.8 | 1
24 | HIV-1 isolate 1336 (protease changes: I13V K14R I15V K20I E35D M36I R41K L63P H69K I72M L89M, study 114) | – | – | 0.8 | 0.6 | 0.7 | 0.6 | 0.8
25 | HIV-1 isolate 176 (protease changes: I54V L63P V77I V82T I93L, study 7) | – | – | 3.3 | 2.3 | 0.6 | 2.3 | 6.5
26 | HIV-1 isolate 252 (protease changes: E34Q R41K I62V L63P H69Y A71V G73T V82I I84V L90M I93L, study 15) | – | – | 6.3 | 17.6 | 47.7 | 7.5 | 48.7
27 | HIV-1 isolate 824 (protease changes: R41K A71T V77I, study 15) | – | – | 0.7 | 1.6 | 0.9 | 1 | 1
28 | HIV-1 isolate 800 (protease changes: L10I E35D P39Q Q61E L63P A71T I93L, study 15) | – | – | 0.6 | 1.4 | 0.7 | 0.9 | 0.8
29 | HIV-1 isolate 734 (reverse transcriptase changes: K102Q S162C Y181C K277R I293V R358K V435I S468P K550G, study 128) | – | 200 | – | – | – | – | –
30 | HIV-1 isolate 177 (protease changes: L10I M46I I54V A71V V82A, study 8) | – | – | 24.6 | 17.2 | 0.8 | 6.8 | 33.7
31 | HIV-1 isolate 748 (protease changes: L10I L23I M46L I54V R57K L63P A71V V82A I84V L90M Q92K, study 145) | – | – | 21 | 17 | 38 | 5 | 77
32 | HIV-1 isolate 794 (protease changes: L10I I15V G16E K20R E35D M36I R41K I54A R57K Q61D A71V I72R V82A L89I L90M Q92K, study 109) | – | – | 108 | 136 | 66 | 139 | 197
33 | HIV-1 isolate 370 (protease changes: L10I E35D I54V L63A A71V V82A I85V I93L, study 8) | – | – | 2.3 | 7.2 | 0.9 | 7.1 | 21.6
34 | HIV-1 isolate 101 (protease changes: L10F, study 30) | – | – | 1.6 | 1.3 | 1.3 | 1.5 | 1.1
35 | HIV-1 isolate 1482 (reverse transcriptase changes: K102Q V108I S162C K277R, study 16) | – | 1 | – | – | – | – | –
36 | HIV-1 isolate 993 (protease changes: L10F I84V, study 30) | – | – | 6.2 | 2.6 | 2.7 | 2.1 | 3.6
